A mixed list of measured activities; the numbers were collected in NIAID ChemDB.

Lines come from different laboratories, so protocols vary. MIC bound: limit read from a one-dose screen. ICn is the concentration giving n% inhibition. Inhibition is in % at the dose shown (toxicity tests: loss of growth or viability).

{"structure": "CN(C)c1ccc2nc3c(cc(Nc4cccc5cccc(Nc6cc7ccccc7c7nc8ccc(N(C)C)cc8[o+]c67)c45)c4ccccc43)[o+]c2c1", "endpoint": "inhibition", "agent": "Mycobacterium tuberculosis", "tested at": "12.5 µg/mL", "kind": "culture", "read by": "BACTEC", "strain or isolate": "H37Rv", "result": "93%"}
{"structure": "OCc1ccc(-c2cncc(N3CCN(c4cccc(C(F)(F)F)c4)CC3)n2)cc1", "endpoint": "inhibition", "agent": "Cytomegalovirus", "tested at": "10 µM", "kind": "target", "protein": "UL97 kinase", "result": ">15%"}
{"structure": "C[C@H](N)C(=O)N[C@@H](Cc1ccccc1)C(=O)N1CCC[C@H]1C(=O)Nc1ccc2ccccc2c1", "endpoint": "MIC bound", "agent": "Mycobacterium tuberculosis", "kind": "culture", "read by": "BACTEC", "strain or isolate": "H37Rv", "result": ">12.5 µg/mL"}
{"structure": "COc1cccc(N2CCN(c3cncc(-c4ccccc4)n3)CC2)c1", "endpoint": "IC50", "agent": "Cytomegalovirus", "kind": "target", "protein": "UL97 kinase", "result": "<100 µM"}
{"structure": "O=C(O)C1CCCCC1c1c2ccc(=O)c(O)c-2oc2c(O)c(O)ccc12", "endpoint": "MIC bound", "agent": "Mycobacterium tuberculosis", "kind": "culture", "read by": "BACTEC", "strain or isolate": "H37Rv", "result": ">12.5 µg/mL"}
{"structure": "NC(=O)c1ccc(-c2cncc(N3CCN(c4cccc(Cl)c4)CC3)n2)cc1", "endpoint": "IC50", "agent": "Cytomegalovirus", "kind": "target", "protein": "UL97 kinase", "result": "<10 µM"}
{"structure": "Brc1c2ccccc2cc2c1ccc1ccccc12", "endpoint": "MIC", "agent": "Mycobacterium tuberculosis", "kind": "culture", "strain or isolate": "H37Rv", "result": ">100 µg/mL"}
{"structure": "O=C1CNN=C(Cn2nc(-c3ccccc3)c3ccccc3c2=O)N1", "endpoint": "MIC bound", "agent": "Mycobacterium tuberculosis", "kind": "culture", "read by": "BACTEC", "strain or isolate": "H37Rv", "result": ">12.5 µg/mL"}
{"structure": "Nc1ccccc1[N+](=O)[O-]", "endpoint": "MIC", "agent": "Mycobacterium tuberculosis", "kind": "culture", "strain or isolate": "H37Rv", "result": ">100 µg/mL"}
{"structure": "COc1ccc(-c2cncc(N3CCN(c4ccncc4)CC3)n2)cc1OC", "endpoint": "IC50", "agent": "Cytomegalovirus", "kind": "target", "protein": "UL97 kinase", "result": "<1 µM"}
{"structure": "Nc1nc(NCCCc2ccccc2)cc(=O)[nH]1", "endpoint": "MIC bound", "agent": "Mycobacterium tuberculosis", "kind": "culture", "read by": "BACTEC", "strain or isolate": "H37Rv", "result": ">12.5 µg/mL"}
{"structure": "CN(C)CC1(C)CCc2ccc3ccccc3c2C1O.Cl", "endpoint": "MIC", "agent": "Mycobacterium tuberculosis", "kind": "culture", "strain or isolate": "H37Rv", "result": ">100 µg/mL"}
{"structure": "Fc1ccc(N2CCCCC2)c(NC(=S)c2ccncc2)c1", "endpoint": "inhibition", "tested at": "10 µM", "kind": "host protein", "protein": "PKA", "read by": "kinase activity", "result": "28%"}
{"structure": "N#CCC(=O)N=C(N)N", "endpoint": "MIC", "agent": "Mycobacterium tuberculosis", "kind": "culture", "strain or isolate": "H37Rv", "result": ">100 µg/mL"}
{"structure": "Cc1cc(C)cc(-c2cncc(N3CCN(c4ccc(Cl)c(Cl)c4)CC3)n2)c1", "endpoint": "IC50", "agent": "Cytomegalovirus", "kind": "target", "protein": "UL97 kinase", "result": "<100 µM"}
{"structure": "CC(=O)Nc1ccc(S(=O)(=O)c2ccc(N)cc2)cc1", "endpoint": "MIC", "agent": "Mycobacterium tuberculosis", "kind": "culture", "strain or isolate": "H37Rv", "result": ">100 µg/mL"}
{"structure": "O=C1CN(CCN2CC(=O)N(Cc3ccccc3)C(=O)C2)CC(=O)N1Cc1ccccc1", "endpoint": "MIC bound", "agent": "Mycobacterium tuberculosis", "kind": "culture", "read by": "resazurin", "strain or isolate": "H37Rv", "result": ">6.25 µg/mL"}
{"structure": "O=C1COC(=S)N1CCS(=O)(=O)O", "endpoint": "MIC", "agent": "Mycobacterium tuberculosis", "kind": "culture", "strain or isolate": "H37Rv", "result": ">100 µg/mL"}
{"structure": "CC(=O)O[C@@H]1[C@@H](O)C2=C3[C@]4(C)[C@@H]1C(C)(C)C(=O)C[C@@H]4[C@]3(O)[C@H](OC(C)=O)[C@@]1(C[C@H]1C)C2=O", "endpoint": "MIC bound", "agent": "Mycobacterium tuberculosis", "kind": "culture", "read by": "BACTEC", "strain or isolate": "H37Rv", "result": ">12.5 µg/mL"}
{"structure": "CC(=O)c1ccc(-c2cncc(N3CCN(c4cccc(Cl)c4)CC3)n2)cc1", "endpoint": "inhibition", "agent": "Cytomegalovirus", "tested at": "1 µM", "kind": "target", "protein": "UL97 kinase", "result": "<50%"}
{"structure": "Cc1ccc(S(=O)(=O)Nc2ccc(N)cc2)cc1", "endpoint": "MIC", "agent": "Mycobacterium tuberculosis", "kind": "culture", "strain or isolate": "H37Rv", "result": "50 µg/mL"}

3 of the rows above, restated:

{"structure": "Cc1ccc(S(=O)(=O)Nc2ccc(N)cc2)cc1", "endpoint": "MIC", "agent": "Mycobacterium tuberculosis", "kind": "culture", "strain or isolate": "H37Rv", "result": "50 µg/mL"}
{"structure": "N#CCC(=O)N=C(N)N", "endpoint": "MIC", "agent": "Mycobacterium tuberculosis", "kind": "culture", "strain or isolate": "H37Rv", "result": ">100 µg/mL"}
{"structure": "CN(C)c1ccc2nc3c(cc(Nc4cccc5cccc(Nc6cc7ccccc7c7nc8ccc(N(C)C)cc8[o+]c67)c45)c4ccccc43)[o+]c2c1", "endpoint": "inhibition", "agent": "Mycobacterium tuberculosis", "tested at": "12.5 µg/mL", "kind": "culture", "read by": "BACTEC", "strain or isolate": "H37Rv", "result": "93%"}